# Marks after values point to notes of the source that are not given here.
# Molecular target: T1, HIV-1 protease (Human immunodeficiency virus type 1 group M subtype B, UniProt P04585)
# T1 construct: HIV-1 protease enzyme (Sigma Aldrich); purchased Sigma Aldrich
# Assay: HIV-1 protease inhibition assay (fluorescent substrate)
# Assay type: biochemical
# Conditions: 10 μM compounds dissolved in DMSO
# Experimental: HIV-1 protease inhibition was performed by using a previously described method. HIV protease fluorescent substrate and HIV-1 protease enzyme (Sigma Aldrich) were used to determine HIV inhibition capacity of sample. Three primary controls i.e., blank, sample and positive control were used. Reaction mixture of 200 µL comprised of five enzyme units (5U) of HIV-1 protease along with 0.5 pmol of enzyme substrate. After addition of both enzymes and substrates, test compounds were added in different concentrations. Reaction mixture was incubated at 37 °C which leads to generation of fluorescence signal by cleaving Tyr-Pro peptide bond of the substrate. Finally reaction mixture was heated for 5 minutes at 90 °C to stop the reaction. The mixture was centrifuged at 12,000 rpm for 3 min. and supernatant was used to measure the fluorescence signal. The enzyme inhibition was calculated using the Equation (1).
substance,measurement,value
"(1E,6E)-1,7-bis(4-hydroxy-3-methoxyphenyl)-1,6-heptadiene-3,5-dione [Curcumin]",% Enzyme Inhibition HIV-I protease,48.3 ^c %

# Reference: paper PMC6270194, “Curcumin and Its Carbocyclic Analogs: Structure-Activity in Relation to Antioxidant and Selected Biological Properties” (Molecules, 2013)
